Results from the supplement of paper PMC9931576.
Human monoclonal antibodies against the spike receptor-binding domain (heavy:light variable regions). IC50 against pseudoviruses bearing the spike of naturally observed variants; lower = stronger; >10 µg/ml means not reached at the top dose. No active / inactive call. The stated detection limit is 0.0005 µg/ml; values near or below 0.001 µg/ml lie at the floor of the assay.

B1: BD55-6580 (protein)
chain 1: QITLKESGPTLVKPTQTLTLTCTFSGFSLATSGVGVGWIRQPPGKALEWLGIIYWNDDNRYSPSLRNRLTITKATSKNQVVLTMTNLDPVDTATYFCAHIPRHTYVLNQDNWFDPWGQGTLVTVSS
chain 2: SYELTQPPSVSVSPGQTARITCSGDAWPNQYAYWYQQKPGQAPILVIYKDTQRPSGIPERFSGSSSGTTVTLTISGVQAEDEADYYCQSADSSDVVFGGGTRLTVL
B2: BD55-6564 (protein)
chain 1: QVQLVQSGAEVKKTGSSVKVSCKASGGTFSTYAITWVRQAPGQGLEWMGKIIPIVGKAHYAQEFQGRVTITADKSTSTVYMELSSLRLEDTAVYYCARENKGGEDTQKYSGYDLLEGGWCDPWGQGTLVIVSS
chain 2: DIVMTQSPDSLAVSLGERATINCKSSQSVLYSSNIENYLAWYQQKPGQPPKLLIYWASTRESGVPDRFTGSGSGTDFTLTISSLQAEDVAVYYCQQYYSTPPTFGQGTKVEIK
B3: BD55-6574 (protein)
chain 1: EVQLVQSGAEVKKPGESLKISCKGSGFSFTHYWIGWVRQVPGQGLEWMGIIYPDDSDTTYSPSFQGRITISADKSSSTAYLQWSSLKASDTAIYYCGFTMTTVGGRYFDFWGQGTLVTVSS
chain 2: IQMTQSPSTLSASVGDRVTITCRASQSISTSLAWYQQKPGKAPSLLIYKTSTLESGVPSRFSGSGSGTEFTLTISSLRPDDFATYHCQQYSAFPLTFGQGTKVEIK
B4: BD55-6569 (protein)
chain 1: QLQLQESGPGLVKPSEALSLTCTVSGGAISSSIDYWGWIRQPPGKGLEWIGSLYNGGNTYYNPSLKSRLTISVDMSKDQFSLKLSSVTAADTAVYYCARLAYDGSLDDHWGQGTLVTVSS
chain 2: QSVLTQPPSASGTPGQRVTISCSGRSSNIGSNYVYWYHQLPGMAPKLLIYRNNLRPSGVPDRFSGSKSGASASLAISGLRSEDEAAYYCAAWDDSLSGVVFGGGTKLTVL
B5: BD55-6581 (protein)
chain 1: EVQLVESGGGLVQPGRSLRLSCVASGFIFSGNDLHWVRQAPGKGLEWISYISPNEYVIYYADSVKGRFTISRDDAKNSLSLQMNSLGAEDTGVYYCASGTGAHMITFGGVMTYWGQGILVTVSS
chain 2: QSVLTQPPSVSAAPGQKVTISCSGSSSNIGHGSVSWYQQLPGTAPKLLIFDSQRRPSGIPDRFSGSRSGTSATLDITGLQTGDEADYYCGTWDSSLSGVVFGGGTKLTVL
B6: BD55-6563 (protein)
chain 1: QVQLRQWGAGLLKPSETLSLTCGVYGGSLTGNYWSWIRQPPGKGLEWIGEINHIGSTDYNPSLQSRVTMSVDTSKNQFSLKLISVTADDTAVYYCARLPSRIGSSWPSGNYYYNGVDVWGQGATVTVSS
chain 2: DIVMTQSPDSLAVSLGERATISCKSTHDLLHSSNNKNYLAWYLHKPGQPPKVLIYWGSARGSGVPDRFSGSGSGTDFTLTISGLQAEDVAVYYCQQYYSSPYTFGQGTKLEIK

The binders below were run against SARS-CoV-2 Omicron BA.1 spike pseudovirus (assay: pseudovirus neutralization IC50; higher = weaker neutralization).
Method: (§1)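 Single-round VSV luciferase pseudovirus mixed with antibody dilutions for 1 h and put on Huh-7 cells for about a day; IC50 from the dose curve.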

Binder	pseudovirus neutralization IC50
B1	> 10 µg/mL
B2	> 10 µg/mL
B3	> 10 µg/mL
B4	> 10 µg/mL
B5	> 10 µg/mL
B6	> 10 µg/mL

These binders were tested against SARS-CoV-2 Omicron BA.2 spike pseudovirus in the same assay as above.
Method: as §1

Binder	pseudovirus neutralization IC50
B1	> 10 µg/mL
B2	> 10 µg/mL
B3	> 10 µg/mL
B4	> 10 µg/mL
B5	> 10 µg/mL
B6	> 10 µg/mL

What follows are binders tested against SARS-CoV-2 Omicron BA.2.75 spike pseudovirus in the same assay as above.
Method: as §1

Binder	pseudovirus neutralization IC50
B1	> 10 µg/mL
B2	> 10 µg/mL
B3	> 10 µg/mL
B4	> 10 µg/mL
B5	> 10 µg/mL
B6	> 10 µg/mL

The binders below were run against SARS-CoV-2 Omicron BA.5 spike pseudovirus in the same assay as above.
Method: as §1

Binder	pseudovirus neutralization IC50
B1	> 10 µg/mL
B2	> 10 µg/mL
B3	> 10 µg/mL
B4	> 10 µg/mL
B5	> 10 µg/mL
B6	> 10 µg/mL

Each binder was assayed against SARS-CoV-2 Omicron BQ.1.1 spike pseudovirus in the same assay as above.
Method: as §1

Binder	pseudovirus neutralization IC50
B1	> 10 µg/mL
B2	> 10 µg/mL
B3	> 10 µg/mL
B4	> 10 µg/mL
B5	> 10 µg/mL
B6	> 10 µg/mL

What follows are binders tested against SARS-CoV-2 Omicron XBB spike pseudovirus in the same assay as above.
Method: as §1

Binder	pseudovirus neutralization IC50
B1	> 10 µg/mL
B2	> 10 µg/mL
B3	> 10 µg/mL
B4	> 10 µg/mL
B5	> 10 µg/mL
B6	> 10 µg/mL

What follows are binders tested against SARS-CoV-2 early D614G spike pseudovirus in the same assay as above.
Method: as §1

Binder	pseudovirus neutralization IC50
B1	> 10 µg/mL
B2	0.487 µg/mL
B3	> 10 µg/mL
B4	3.64 µg/mL
B5	> 10 µg/mL
B6	> 10 µg/mL
